Test results from patent US6673827B1, “Methods of treating fungal infections with inhibitors of NAD synthetase enzyme” (priority 1999, dated 2004).

Columns and labels:
[1] = test system: Candida tropicalis ATCC 750; test: In vitro study of inhibition of growth and lethality against yeast (MIC/MLC susceptibility test), isolate A; settings: 2nd pair of lines, read at 48 hr, isolate assigned by line order, tested form: iodide
[2] = test system: Candida tropicalis ATCC 28707; test: In vitro study of inhibition of growth and lethality against yeast (MIC/MLC susceptibility test), isolate B; format: cell-based; settings: 1st pair of lines, read at 48 hr, isolate assigned by line order, tested form: iodide
[3] = test system: Candida albicans KJP-000531594; test: In vitro study of inhibition of growth and lethality against yeast (MIC/MLC susceptibility test), isolate C; settings: 1st pair of lines, tested form: iodide
[4] = test system: Candida albicans LH-000664533; test: In vitro study of inhibition of growth and lethality against yeast (MIC/MLC susceptibility test), isolate D; format: cell-based; settings: 2nd pair of lines, read at 48 hr, isolate assigned by line order, tested form: iodide
[5] = test system: Cryptococcus neoformans DLB-1027594CNC; test: In vitro study of inhibition of growth and lethality against yeast (MIC/MLC susceptibility test), isolate G; format: cell-based; settings: 1st pair of lines, isolate assigned by line order, tested form: iodide
[6] = test system: Cryptococcus neoformans SLP-BC0012854; test: In vitro study of inhibition of growth and lethality against yeast (MIC/MLC susceptibility test), isolate H; settings: 2nd pair of lines, isolate assigned by line order, tested form: iodide

SMILES: C[n+]1c2c(cc3ccccc31)C(=O)OCCCCCCCCn1cc-2c2cc(OCc3ccccc3)ccc21
- Minimum Inhibitory Conc. (MIC), 48 hr. [1]: 4 µg/mL
- Minimum Inhibitory Conc. (MIC), 48 hr. [2]: 0.5 µg/mL
- Minimum Inhibitory Conc. (MIC), 24 hr. ([3]; read at 24 hr, isolate not given, assigned by line order and MLC of Table 4B): 2 µg/mL
- Minimum Inhibitory Conc. (MIC), 48 hr. ([3]; read at 48 hr, isolate assigned by line order): 4 µg/mL
- Minimum Inhibitory Conc. (MIC), 48 hr. [4]: 4 µg/mL
- Minimum Inhibitory Conc. (MIC), 48 hr. ([5]; read at 48 hr): 8 µg/mL
- Minimum Inhibitory Conc. (MIC), 72 hr. ([5]; read at 72 hr): 8 µg/mL
- Minimum Inhibitory Conc. (MIC), 48 hr. ([6]; read at 48 hr): 8 µg/mL
- Minimum Inhibitory Conc. (MIC), 72 hr. ([6]; read at 72 hr): 8 µg/mL
